# RC index of single-base changes in HIV-1 Gag

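Random point mutant libraries of HIV-1 NL4-3, one for each of seven fragments, were passaged in CEM T lymphocytes. Sequencing gave the RC index: frequency after two rounds over frequency in the input plasmid.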

Protein: Gag of HIV-1 NL4-3, numbered from its first residue. Gag is numbered as the whole polyprotein.
Effects on overlapping genes or RNA elements are not listed.

A higher RC index is a better tolerated change; approximate classes are lethal up to 0.1, attenuated to 0.2, tolerated above. Substitutions are written as wild-type residue, site number, new residue. Input reads are the counts in the plasmid library. Base changes are numbered along pNL4-3.

substitution | base | region | input reads | RC
A224E | C1460A | CA | 314 | 0.0821
P225S | C1462T | CA | 1033 | 0.0832
P225L | C1463T | CA | 342 | 0.163
G226C | G1465T | CA | 679 | 0.0285
G226D | G1466A | CA | 649 | 0.113
G226A | G1466C | CA | 83 | 0.104
Q227P | A1469C | CA | 181 | 0.0950
Q227L | A1469T | CA | 584 | 0.0515
Q227H | G1470T | CA | 260 | 0.0744
M228V | A1471G | CA | 278 | 0.0309
M228L | A1471T | CA | 271 | 0.0635
M228K | T1472A | CA | 474 | 0.0272
M228T | T1472C | CA | 344 | 0.362
R229K | G1475A | CA | 256 | 0.781
E230G | A1478G | CA | 316 | 0.0408
E230V | A1478T | CA | 241 | 0.0535
E230D | A1479T | CA | 281 | 0.0382
P231S | C1480T | CA | 578 | 0.0669
P231Q | C1481A | CA | 69 | 0.405
R232K | G1484A | CA | 277 | 0.365
R232T | G1484C | CA | 46 | 0.0935
R232S | G1485T | CA | 96 | 0.246
G233R | G1486A | CA | 152 | 0.354
G233E | G1487A | CA | 388 | 0.139
S234C | A1489T | CA | 486 | 0.0619
S234N | G1490A | CA | 295 | 0.219
S234I | G1490T | CA | 175 | 0.111
S234R | T1491A | CA | 388 | 0.0277
S234R | T1491G | CA | 53 | 0.122
D235N | G1492A | CA | 287 | 0.180
I236T | T1496C | CA | 238 | 0.0993
A237T | G1498A | CA | 780 | 0.143
A237P | G1498C | CA | 162 | 0.0796
A237S | G1498T | CA | 522 | 0.0494
G238R | G1501A | CA | 166 | 0.142
G238E | G1502A | CA | 275 | 0.250
T239S | C1505G | CA | 124 | 0.0173
T240S | A1507T | CA | 308 | 0.0209
T240N | C1508A | CA | 299 | 0.0503
T240I | C1508T | CA | 585 | 0.0588
S241G | A1510G | CA | 474 | 0.0635
S241N | G1511A | CA | 492 | 0.0568
S241T | G1511C | CA | 184 | 0.0701
S241I | G1511T | CA | 237 | 0.0453
T242S | A1513T | CA | 228 | 0.0848
T242I | C1514T | CA | 816 | 0.0553
L243P | T1517C | CA | 202 | 0.170
E245K | G1522A | CA | 173 | 0.174
E245D | A1524T | CA | 665 | 0.225
Q246P | A1526C | CA | 319 | 0.0545
Q246R | A1526G | CA | 781 | 0.0695
Q246L | A1526T | CA | 1051 | 0.0413
Q246H | A1527C | CA | 402 | 0.0324
I247L | A1528C | CA | 268 | 0.0162
I247V | A1528G | CA | 345 | 0.157
I247L | A1528T | CA | 558 | 0.0389
I247K | T1529A | CA | 1032 | 0.0400
I247T | T1529C | CA | 755 | 0.0518
I247R | T1529G | CA | 87 | 0.0749
G248R | G1531A | CA | 548 | 0.503
W249G | T1534G | CA | 106 | 0.102
M250T | T1538C | CA | 381 | 0.0691
M250I | G1539A | CA | 374 | 0.329
T251P | A1540C | CA | 151 | 0.0436

Excerpt, the final 3 entries:

| substitution | base | region | input reads | RC |
|---|---|---|---|---|
| M250T | T1538C | CA | 381 | 0.0691 |
| M250I | G1539A | CA | 374 | 0.329 |
| T251P | A1540C | CA | 151 | 0.0436 |

The authors read an index above 1 as above wild type (1.9% of all changes in the genome). Since each clone held several changes (about five per kb), neutral changes can read low.

Source: Al-Mawsawi et al. 2014 (doi:10.1186/s12977-014-0124-6), supplementary data.